Anti-infective test results gathered from many reports (values: NIAID ChemDB through PubChem).

All rows: tests in culture; organism: HIV-1; measure: EC95

Neighbouring rows are from separate reports.

smiles | setting | strain | cell line | read by | changes | result
Cc1cc(C)c(-n2nnnc2SCC(=O)Nc2ccc(-n3cccn3)cc2)c(C)c1 | - | - | MT-4 | p24 | - | <10 µM
Cc1cc(SC2=C(O)CC(CCc3cccc(O)c3)(C3CCCC3)OC2=O)c(C(C)(C)C)cc1CO | - | - | CEM | cytopathic effect / XTT | - | 0.6 µM
O=C(NCc1ccc(F)cc1)c1nc[nH]c(=O)c1O | 50% human serum | IIIB | MT-4 | p24 / ELISA | - | >10 µM
CC(=O)N1CCOCC1c1nc(C(=O)NCc2ccc(F)cc2)c(O)c(=O)n1C | 10% FBS | IIIB | MT-4 | p24 / ELISA | - | >1 µM
Cc1cc(C)c(-n2nnnc2SCC(=O)Nc2cccc3c2C(=O)NC3=O)c(C)c1 | - | - | MT-4 | p24 | - | <10 µM
CN1C[C@H](OCc2ccccc2)C[C@H]1c1nc(C(=O)NCc2ccc(F)cc2)c(O)c(=O)n1C | 50% human serum | IIIB | MT-4 | p24 / ELISA | - | 0.31 µM
CC(C)(C)NC(=O)[C@@H]1C[C@@H]2CCCC[C@@H]2CN1C[C@@H](O)[C@H](Cc1ccccc1)NC(=O)[C@H](CC(N)=O)NC(=O)c1ccc2ccccc2n1 | - | NL4-3 | MT-4 | p24 | PR-M46I L63P | 0.025 µM
Cc1cc(C)c(-n2nnnc2SCC(=O)Nc2cccc(F)c2C)c(C)c1 | - | - | MT-4 | p24 | - | <10 µM
CN1CCS(=O)(=O)CC1c1nc(C(=O)NCc2ccc(F)cc2)c(O)c(=O)n1C | 50% human serum | IIIB | MT-4 | p24 / ELISA | - | >1 µM
Cc1cc(C)c(-n2nnnc2SCC(=O)Nc2ccc(F)cc2[N+](=O)[O-])c(C)c1 | - | - | MT-4 | p24 | - | <10 µM
CC(C)CN(C[C@@H](O)[C@H](Cc1ccccc1)NC(=O)[C@H](CC(N)=O)NC(=O)c1ccc2ccccc2n1)C(=O)NC(C)(C)C | - | NL4-3 | MT-4 | p24 | PR-L63P V82T | 0.2 µM
Cn1c(C2COCCN2)nc(C(=O)NCc2ccc(F)cc2)c(O)c1=O | 50% human serum | IIIB | MT-4 | p24 / ELISA | - | >1 µM
O=C(CSc1nnnn1-c1cccc2ccccc12)Nc1ccccc1 | - | - | MT-4 | p24 | - | <10 µM
CN1CCOCC1c1nc(C(=O)NCCc2ccccc2)c(O)c(=O)n1C | 10% FBS | IIIB | MT-4 | p24 / ELISA | - | >8 µM
Cc1ccnc2c1NC(=O)c1cccnc1N2C1CC1 | - | - | MT-4 | - | RT-L74V K103N | >3 µM
Cc1cc(C)c(-n2nnnc2SCC(=O)Nc2cc(C)ccc2Cl)c(C)c1 | - | - | MT-4 | p24 | - | <10 µM
CN(C)S(=O)(=O)N(C)C1CCn2c1nc(C(=O)NCc1ccc(F)cc1)c(O)c2=O | 10% FBS | IIIB | MT-4 | p24 / ELISA | - | >1 µM
CC1CCC(c2nc(C(=O)NCc3ccc(F)cc3)c(O)c(=O)n2C)N1C | 50% human serum | IIIB | MT-4 | p24 / ELISA | - | >1 µM

The last 2 rows once more:

| smiles | setting | strain | cell line | read by | changes | result |
|---|---|---|---|---|---|---|
| CN(C)S(=O)(=O)N(C)C1CCn2c1nc(C(=O)NCc1ccc(F)cc1)c(O)c2=O | 10% FBS | IIIB | MT-4 | p24 / ELISA | - | >1 µM |
| CC1CCC(c2nc(C(=O)NCc3ccc(F)cc3)c(O)c(=O)n2C)N1C | 50% human serum | IIIB | MT-4 | p24 / ELISA | - | >1 µM |

An empty or dashed field is not shown. ECn is the concentration giving n% inhibition of infection, replication or growth.